Patent EP0271041A2 (ABBOTT LABORATORIES, priority 1986, dated 1988)

Test: general procedure: Boc solid-phase peptide synthesis; N-alpha-t-Boc-Arginyl(NG-Tos)-O Merrifield resin; diisopropylcarbodiimide
Settings: whole synthesis

## Seryl-Seryl-Cysteinyl-Phenylalanyl-Glycyl-Glycyl-Arginyl-Isoleucyl-Aspartyl-Arginyl-Isoleucyl Cysteinyl-Phenylalanyl-Arginyl Cyclic Disulfide
  isolated mass: 20 mg
Scale of the general procedure 0.5 g - 1.0 g resin
  isolated yield: 6%
